Measured values from several laboratories, pooled; numbers as filed in NIAID ChemDB.

Common to all: enzyme or target tests; agent: Pneumocystis carinii; target: Dihydrofolate reductase; measure: IC50

Conditions beyond the fields shown may differ between rows. ICn: concentration for n% inhibition.

structure,result
Nc1nc(N)c2cc(COC(=O)c3c4ccccc4cc4ccccc34)ccc2n1,0.49 µM
CC(Cc1c[nH]c2nc(N)nc(N)c12)c1ccc2ccccc2c1,0.859 µM
Nc1nc(N)c2cc(COC(=O)c3ccoc3)ccc2n1,0.98 µM
Nc1nc2[nH]c(CCc3ccc4ccccc4c3)cc2c(=O)[nH]1,>17 µM
Nc1nc(N)c2cc(COC(=O)c3cccs3)ccc2n1,0.27 µM
Nc1nc2[nH]c(CCc3ccccc3)cc2c(=O)[nH]1,>19 µM
Nc1nc(N)c2cc3c(ccc4ccccc43)nc2n1,0.19 µM
Nc1nc(N)c2cc(COC(=O)c3ccccc3)ccc2n1,0.6 µM
COc1ccc(OC)c(C(C)Cc2c[nH]c3nc(N)nc(N)c23)c1,8.06 µM
COc1ccc2c(c1)-c1nc3nc(N)nc(N)c3cc1CC2,38.4 µM
CC(C)(C)C1CCc2nc(N)nc(N)c2C1,0.18 µM
Nc1nc(N)c2cc(COC(=O)c3ccccc3Cc3ccccc3)ccc2n1,1.4 µM
COc1cc(CNCC2CCc3nc(N)nc(N)c3C2)cc(OC)c1OC,8.5 µM
COc1ccc2ccc3nc4nc(N)nc(N)c4cc3c2c1,0.7 µM
CC1(C)CN2CCC1c1nc(N)nc(N)c12,>46 µM
COc1ccc(CCc2cc3c(=O)[nH]c(N)nc3[nH]2)cc1,>18 µM
Nc1nc(N)c2c(n1)CC1CC(=O)CC2C1,260 µM
Nc1nc2[nH]c(CCc3cccc4ccccc34)cc2c(=O)[nH]1,>17 µM

The first 2 rows once more:

structure	result
Nc1nc(N)c2cc(COC(=O)c3c4ccccc4cc4ccccc34)ccc2n1	0.49 µM
CC(Cc1c[nH]c2nc(N)nc(N)c12)c1ccc2ccccc2c1	0.859 µM